Results of unrelated studies side by side (data: NIAID ChemDB).

Shared fields: growth or infection tests; organism: HIV-2; read-out: EC50

ECn: concentration that inhibits the pathogen or its effect by n%. Blank or dashed fields: not listed here. Neighbouring rows are from separate reports.

compound,cells,strain or isolate,method,result
COC(=O)C(C)(C)NP(=O)(OC[C@@H]1C=C[C@H](n2cc(C)c(=O)[nH]c2=O)O1)Oc1ccccc1,CEM,,,0.5 µM
COC(=O)CCCCCNP(=O)(OC[C@@H]1C=C[C@H](n2cc(C)c(=O)[nH]c2=O)O1)Oc1ccccc1,CEM + CEM/0,ROD,cytopathic effect / trypan blue,≥250 µM
O=C1c2ccccc2C(=O)N1CC12CC3CC(CC(C3)C1)C2,CEM,ROD,syncytia,>4 µg/mL
Cc1[nH]c(=S)n(Nc2cccc(Cl)c2)c1C,MT-4,ROD,cytopathic effect / MTT,>259 µM
CC(=O)Oc1ccc(COP(=O)(OCc2ccc(OC(=O)c3ccc(C)cc3)cc2)OP(=O)(O)OCC2C=C[C@H](n3cc(C)c(=O)[nH]c3=O)O2)cc1,CEM,ROD,syncytia,1.05 µM
Nc1cccc2c1C(=O)N(C1C3CC4CC(C3)CC1C4)C2=O,CEM,ROD,syncytia,>4 µg/mL
C=CCO[C@]12CS(=O)(=O)O[C@@]13[C@@H](CN2)O[C@@H](n1cc(C)c(=O)[nH]c1=O)[C@@H]3O[Si](C)(C)C(C)(C)C,MT-4,ROD,,>10 µM
CN(C)c1nc(N)nc2c1ncn2CCOCP(=O)(O)O,MT-4,ROD,cytopathic effect / MTT,0.4 µg/mL
Cc1cn([C@@H]2O[C@@H]3CN[C@@]4(OCCOc5ccccc5)CS(=O)(=O)O[C@@]34[C@H]2O[Si](C)(C)C(C)(C)C)c(=O)[nH]c1=O,MT-4,ROD,,>5 µM
Cc1cn([C@H]2C=C[C@@H](CO)O2)c(=O)[nH]c1=O,CEM,,,0.77 µM
C#CCn1ccc(=O)[nH]c1=O,MT-4,ROD,cytopathic effect,>100 µg/mL
O=c1[nH]c2ccc(Cc3ccccc3F)cc2o1,CEM,ROD,syncytia,>8 µg/mL
CC1=CC(=C(c2ccc(N)c(S(=O)(=O)O)c2)c2ccc(N)c(S(=O)(=O)O)c2)C=C(S(=O)(=O)O)C1=N,MT-4,,cytopathic effect,63 µM
CCC(=O)c1ccc2c(c1)sc(=O)n2CCN1CCOCC1,CEM,ROD,syncytia,>40 µg/mL
O=C1c2ccccc2[C@@]2(O)[C@H]3C4CC5CC(C4)CC3(C5)CN12,CEM,ROD,syncytia,>4 µg/mL
COC(=O)C(C)NP(=O)(OC[C@@H]1C=C[C@H](n2cc(F)c(=O)[nH]c2=O)O1)Oc1ccccc1,CEM + CEM TK-,ROD,syncytia,100 µM
COC(=O)[C@@H](NP(=O)(OC[C@@H]1C=C[C@H](n2cc(C)c(=O)[nH]c2=O)O1)Oc1ccccc1)c1ccccc1,CEM,,,15.3 µM
Cc1cccc(Nn2c(-c3ccccc3)c(C)[nH]c2=S)c1,MT-4,ROD,cytopathic effect / MTT,>35.71 µM
N#CCCC12CC3CC(C1)CC(N1C(=O)c4ccccc4C1=O)(C3)C2,CEM,ROD,syncytia,>4 µg/mL
CCCCCCCCCC(=O)Oc1ccc(COP(=O)(OCc2ccc(OC(C)=O)cc2)OP(=O)(O)OCC2C=C[C@H](n3cc(C)c(=O)[nH]c3=O)O2)cc1,CEM,ROD,syncytia,1.05 µM
COC(=O)[C@H](C)NP(=O)(OC[C@@H]1C=C[C@H](n2cc(C)c(=O)[nH]c2=O)O1)Oc1ccccc1,CEM,,,0.075 µM
CC(c1nnc(SCc2ccc(Br)cc2)o1)N(Cc1ccc(Br)cc1)S(=O)(=O)c1ccc(Cl)cc1,MT-4,ROD,,>125 µg/mL
Cc1cn([C@H]2C=C[C@@H](CO)O2)c(=O)[nH]c1=O,CEM + CEM/0,ROD,cytopathic effect / trypan blue,0.27 µM
N#Cc1ccc(-c2csc(N/N=C/c3ccc([N+](=O)[O-])cc3)n2)cc1,MT-4,ROD,MTT,>10.55 µM
CC(=O)Oc1ccc(COP(=O)(OCc2ccc(OC(=O)c3ccc(C(F)(F)F)cc3)cc2)OP(=O)(O)OCC2C=C[C@H](n3cc(C)c(=O)[nH]c3=O)O2)cc1,CEM,ROD,syncytia,1.05 µM
CC1=CC(=O)NS(=O)(=O)N1COCc1ccccc1,MT-4,,cytopathic effect / MTT,>400 µg/mL
O=C1c2ccccc2C(=O)N1CCC1C2CC3CC(C2)CC1C3,CEM,ROD,syncytia,>4 µg/mL
C#CCn1cc(Br)c(=O)[nH]c1=O,MT-4,ROD,cytopathic effect,>100 µg/mL
Nc1nc(N2CCCC2)c2ncn(CCOCP(=O)(O)O)c2n1,CEM,ROD,cytopathic effect / MTT,1.65 µg/mL
Cc1[nH]c(=S)n(Nc2ccccc2Cl)c1-c1ccccc1,MT-4,ROD,cytopathic effect / MTT,>162 µM
Cc1cn([C@@H]2O[C@@H]3CN[C@@]4(O[Si](C)(C)C(C)(C)C)CS(=O)(=O)O[C@@]34[C@H]2O[Si](C)(C)C(C)(C)C)c(=O)[nH]c1=O,MT-4,ROD,,>2 µM
O=C(c1cccc(Cl)c1)c1ccc2c(c1)sc(=O)n2Cc1ccccc1,CEM,ROD,syncytia,>1.6 µg/mL
CCCCCO[C@]12CS(=O)(=O)O[C@@]13[C@@H](CN2)O[C@@H](n1cc(C)c(=O)[nH]c1=O)[C@@H]3O,CEM,ROD,,>250 µM
Cc1ccnc2c1NC(=O)c1cccnc1N2C1CC1,MT-4,ROD,MTT,>4 µM
CC(=O)OCCOCn1cc(Cn2cc(I)c(=O)[nH]c2=O)nn1,MT-4,ROD,cytopathic effect,>100 µg/mL
CCO[C@]12CS(=O)(=O)O[C@@]13[C@@H](CN2)O[C@@H](n1cc(C)c(=O)[nH]c1=O)[C@@H]3OC(C)=O,CEM,ROD,,>250 µM
COc1cccc(Nn2c(-c3ccccc3)c(C)[nH]c2=S)c1,MT-4,ROD,cytopathic effect / MTT,>38.02 µM
CC(NS(=O)(=O)c1ccc(Cl)cc1)c1nnc(SCc2ccccc2)o1,MT-4,ROD,,>65.63 µg/mL
CO[C@]12CS(=O)(=O)O[C@@]13[C@@H](CN2)O[C@@H](n1cc(C)c(=O)[nH]c1=O)[C@@H]3O,CEM,ROD,,>250 µM
NC1=NS(=O)(=O)N(COCCO)C=C1,MT-4,,cytopathic effect / MTT,>400 µg/mL
CCc1[nH]c(=S)n(Nc2cccc(Cl)c2)c1-c1ccccc1,MT-4,ROD,cytopathic effect / MTT,>38.96 µM
CSCCC(c1nnc(SCc2ccc(F)cc2)o1)N(Cc1ccc(F)cc1)S(=O)(=O)c1ccc(C)cc1,MT-4,ROD,,>125 µg/mL
C[C@H](CC1CNC2C1CC(N)CN2N)OCP(=O)(O)O,CEM,ROD,cytopathic effect / MTT,>100 µg/mL
C#CCOCN1C=CC(=O)N(COCC#C)S1(=O)=O,MT-4,,cytopathic effect / MTT,>400 µg/mL
CO[C@]12CS(=O)(=O)O[C@@]13C(CN2)O[C@@H](n1cc(C)c(=O)[nH]c1=O)[C@@H]3O[Si](C)(C)C(C)(C)C,CEM,ROD,,>50 µM
O=c1[nH]c(=O)n([C@H]2C=C[C@@H](CO)O2)cc1Cl,CEM + CEM/0,ROD,syncytia,>50 µM
Cn1c(=O)sc2cc(C(=O)c3ccc(Cl)c(Cl)c3)ccc21,CEM,ROD,syncytia,>8 µg/mL
CC(C)(C)C(=O)OC[C@@H]1C=C[C@H](n2cc(I)c(=O)[nH]c2=O)O1,CEM + CEM/0,ROD,syncytia,>10 µM
COC(=O)CCCCCCNP(=O)(OC[C@@H]1C=C[C@H](n2cc(C)c(=O)[nH]c2=O)O1)Oc1ccccc1,CEM + CEM TK-,ROD,cytopathic effect / trypan blue,>250 µM
C[C@H](Cn1cnc2c(N(C)C)ncnc21)OCP(=O)(O)O,CEM,ROD,cytopathic effect / MTT,0.8 µg/mL
CSCCC(NS(=O)(=O)c1ccc(Cl)cc1)c1nnc(SCc2ccccc2)o1,MT-4,ROD,,>12.67 µg/mL
C[C@H](C[n+]1c[nH]c2c(N)nc(N)nc21)OCP(=O)(O)O,MT-4,ROD,cytopathic effect / MTT,0.236 ± 0.03 µg/mL
CCCCC(=O)c1ccc2c(c1)sc(=O)n2Cc1ccccc1,CEM,ROD,syncytia,>40 µg/mL
COC(=O)[C@@H](C)NP(=O)(OC[C@@H]1C=C[C@H](n2cc(C)c(=O)[nH]c2=O)O1)Oc1ccccc1,CEM + CEM/0,ROD,,2 µM
CC(=O)Nc1nc2c(ncn2Cc2cn(COCCOC(C)=O)nn2)c(=O)[nH]1,MT-4,ROD,cytopathic effect,>100 µg/mL
CCCCC(=O)c1ccc2c(c1)sc(=O)n2CCN1CCCCC1,CEM,ROD,syncytia,>8 µg/mL
Cc1ccc(S(=O)(=O)NC(Cc2ccccc2)c2nnc(SCc3ccc(F)cc3)o2)cc1,MT-4,ROD,,>90.83 µg/mL
CC(C)(C)C(=O)OC[C@@H]1C=C[C@H](n2cc(F)c(=O)[nH]c2=O)O1,CEM + CEM/0,ROD,syncytia,>10 µM
CCCCCCCCCCCC(=O)Oc1ccc(COP(=O)(OCc2ccc(OC(=O)CCCC)cc2)OP(=O)(O)OCC2C=C[C@H](n3cc(C)c(=O)[nH]c3=O)O2)cc1,CEM,ROD,syncytia,1.05 µM
N#Cc1ccc(-c2csc(N/N=C/c3ccco3)n2)cc1,MT-4,ROD,MTT,>10.04 µM
CC(=O)OCCOCn1cc(Cn2cc(Cl)c(=O)[nH]c2=O)nn1,MT-4,ROD,cytopathic effect,>100 µg/mL
O=c1oc2cc(Cc3ccccc3)ccc2n1CCN1CCOCC1,CEM,ROD,syncytia,>8 µg/mL
CCO[C@]12CS(=O)(=O)O[C@@]13C(CN2)O[C@@H](n1cc(C)c(=O)[nH]c1=O)[C@@H]3O[Si](C)(C)C(C)(C)C,CEM,ROD,,>50 µM
CC1=CC(=O)N(COCC[Si](C)(C)C(C)(C)C)S(=O)(=O)N1COCC[Si](C)(C)C(C)(C)C,MT-4,,cytopathic effect / MTT,>400 µg/mL
COC(=O)CCNP(=O)(OC[C@@H]1C=C[C@H](n2cc(C)c(=O)[nH]c2=O)O1)Oc1ccccc1,CEM + CEM TK-,ROD,cytopathic effect / trypan blue,>250 µM
CSCCC(NS(=O)(=O)c1ccc(Cl)cc1)c1nnc(SCc2ccc(F)cc2)o1,MT-4,ROD,,>13.65 µg/mL
Cc1ncn(Nc2ccc(F)cc2)c1-c1ccccc1,MT-4,ROD,cytopathic effect / MTT,>30.82 µM
C/C(=N\Nc1nc(-c2ccc(Br)cc2)cs1)c1ccc2c(c1)OCO2,MT-4,ROD,MTT,>41.93 µM
CCC(=O)c1ccc2c(c1)sc(=O)n2CCN1CCCCC1,CEM,ROD,syncytia,>40 µg/mL

7 of the rows above, restated:

compound | cells | strain or isolate | method | result
C[C@H](Cn1cnc2c(N(C)C)ncnc21)OCP(=O)(O)O | CEM | ROD | cytopathic effect / MTT | 0.8 µg/mL
CC(NS(=O)(=O)c1ccc(Cl)cc1)c1nnc(SCc2ccccc2)o1 | MT-4 | ROD |  | >65.63 µg/mL
CN(C)c1nc(N)nc2c1ncn2CCOCP(=O)(O)O | MT-4 | ROD | cytopathic effect / MTT | 0.4 µg/mL
CCCCC(=O)c1ccc2c(c1)sc(=O)n2CCN1CCCCC1 | CEM | ROD | syncytia | >8 µg/mL
CCC(=O)c1ccc2c(c1)sc(=O)n2CCN1CCOCC1 | CEM | ROD | syncytia | >40 µg/mL
O=C1c2ccccc2C(=O)N1CCC1C2CC3CC(C2)CC1C3 | CEM | ROD | syncytia | >4 µg/mL
CCCCCCCCCC(=O)Oc1ccc(COP(=O)(OCc2ccc(OC(C)=O)cc2)OP(=O)(O)OCC2C=C[C@H](n3cc(C)c(=O)[nH]c3=O)O2)cc1 | CEM | ROD | syncytia | 1.05 µM